Compound potency records, mixed from different reports. Data source: NIAID ChemDB in PubChem.

Shared fields: tests on isolated targets

ICn is the concentration giving n% inhibition. a–b is a range or a potency band. Blank or dashed fields: not listed here. Conditions beyond the fields shown may differ between rows.

{"SMILES": "NC(N)=NCc1ccc(Oc2ccccc2)cc1", "agent": "Hepatitis C virus", "protein": "miRNA-122", "method": "substrate cleavage", "measure": "IC50", "value": ">1000 µM"}
{"SMILES": "N#Cc1c(C2CCCCC2)nc(SCC(=O)OCc2ccccc2)[nH]c1=O", "agent": "Hepatitis C virus", "protein": "NS3/NS4A helicase", "measure": "IC50", "value": "15–40 µM"}
{"SMILES": "O=C(NCc1ccccc1-c1ccccc1)Nc1ccccc1-c1nc(C(=O)O)c(O)c(=O)[nH]1", "agent": "Hepatitis C virus", "protein": "HCV polymerase", "measure": "IC50", "value": "<100 µM"}
{"SMILES": "FC(F)(F)Oc1ccc(COc2cccc(-c3cnc4c(-c5nn[nH]n5)cnn4c3C3CCCCC3)c2)cc1Cl", "agent": "Hepatitis C virus", "protein": "RNA-dependent RNA polymerase", "measure": "IC50", "value": "1–10 µM"}
{"SMILES": "O=C(NCc1ccccc1[N+](=O)[O-])Nc1ccccc1-c1nc(C(=O)O)c(O)c(=O)[nH]1", "agent": "Hepatitis C virus", "protein": "HCV polymerase", "measure": "IC50", "value": "<100 µM"}
{"SMILES": "COc1cc(C(=O)N2[C@@H](c3cscn3)[C@H](c3nc(C)no3)C[C@@]2(CC(C)C)C(=O)O)ccc1C(C)(C)C", "agent": "Hepatitis C virus", "protein": "RNA-dependent RNA polymerase", "measure": "IC50", "value": "<50 µM"}
{"SMILES": "O=C(NCc1ccc([N+](=O)[O-])cc1)c1nc2ccccc2c(=O)n1O", "agent": "Hepatitis C virus", "strain": "1b", "protein": "NS5B", "method": "fluorescence", "measure": "IC50", "value": ">50 µM"}
{"SMILES": "COc1ccccc1COC(=O)Nc1ccsc1-c1nc(C(=O)O)c(O)c(=O)[nH]1", "agent": "Hepatitis C virus", "protein": "HCV polymerase", "measure": "IC50", "value": "<25 µM"}
{"SMILES": "COc1ccc(-c2cnc3cc(C(=O)O)nn3c2-c2ccc(OC)cc2)cc1", "agent": "Hepatitis C virus", "protein": "RNA-dependent RNA polymerase", "measure": "IC50", "value": ">10 µM"}
{"SMILES": "CCCCc1ccc(NC(=O)CSc2nc(C3CCCCC3)c(C#N)c(=O)[nH]2)c(C)c1", "agent": "Hepatitis C virus", "protein": "NS3/NS4A helicase", "measure": "IC50", "value": "<15 µM"}
{"SMILES": "O=C(O)c1cnn2c(C3CCCCC3)c(-c3ccc4occc4c3)cnc12", "agent": "Hepatitis C virus", "protein": "RNA-dependent RNA polymerase", "measure": "IC50", "value": "1–10 µM"}
{"SMILES": "Cc1nnc([C@@H]2C[C@@](CC(C)C)(C(=O)O)N(C(=O)c3ccc(C(C)(C)C)cc3)[C@H]2c2nccs2)o1", "agent": "Hepatitis C virus", "protein": "RNA-dependent RNA polymerase", "measure": "IC50", "value": "<50 µM"}
{"SMILES": "O=C(NCc1ccc(Cl)c(Cl)c1)Nc1ccccc1-c1nc(C(=O)O)c(O)c(=O)[nH]1", "agent": "Hepatitis C virus", "protein": "HCV polymerase", "measure": "IC50", "value": "<100 µM"}
{"SMILES": "COc1ccc(-c2cnc3c(C#N)cnn3c2-c2ccc(OC)cc2)cc1", "agent": "Hepatitis C virus", "protein": "RNA-dependent RNA polymerase", "measure": "IC50", "value": ">10 µM"}
{"SMILES": "CC(C)C[C@@]1(C(=O)O)C[C@H](c2nc(Br)ns2)[C@H](c2nccs2)N1C(=O)c1ccc(C(C)(C)C)cc1", "agent": "Hepatitis C virus", "protein": "RNA-dependent RNA polymerase", "measure": "IC50", "value": "<50 µM"}
{"SMILES": "O=C(O)c1nc(-c2sccc2NC(=O)C(NC/C=C/c2ccccc2)c2ccccc2)[nH]c(=O)c1O", "agent": "Hepatitis C virus", "protein": "HCV polymerase", "measure": "IC50", "value": "<25 µM"}
{"SMILES": "c1cncc(COc2cccc(-c3cnc4c(-c5nn[nH]n5)cnn4c3C3CCCCC3)c2)c1", "agent": "Hepatitis C virus", "protein": "RNA-dependent RNA polymerase", "measure": "IC50", "value": "1–10 µM"}
{"SMILES": "Cc1nc([C@@H]2C[C@@](CC(C)C)(C(=O)O)N(C(=O)c3ccc(C(C)(C)C)cc3)[C@H]2c2nccs2)n[nH]1", "agent": "Hepatitis C virus", "protein": "RNA-dependent RNA polymerase", "measure": "IC50", "value": "<50 µM"}
{"SMILES": "Nc1nc2c(ncn2CC[C@H](CO)COP(=O)(O)OP(=O)(O)OP(=O)(O)O)c(=O)[nH]1", "agent": "Hepatitis B virus", "protein": "DNA polymerase", "measure": "Ki", "value": "0.03 µM"}
{"SMILES": "CN(CC(=O)O)C(=O)c1cc2nc(-c3ccc(Cl)cc3)cc(-c3ccc(Oc4ccccc4)cc3)n2n1", "agent": "Hepatitis C virus", "protein": "RNA-dependent RNA polymerase", "measure": "IC50", "value": "1–10 µM"}
{"SMILES": "N#Cc1c(-c2ccc(Br)cc2)nc(NC(=O)Nc2cccc(F)c2)[nH]c1=O", "agent": "Hepatitis C virus", "protein": "NS3/NS4A helicase", "measure": "IC50", "value": "<15 µM"}
{"SMILES": "Cc1noc([C@@H]2C[C@@](CC(C)C)(C(=O)O)N(C(=O)c3ccc(C(C)(C)C)c(C)c3)[C@H]2c2nccs2)n1", "agent": "Hepatitis C virus", "protein": "RNA-dependent RNA polymerase", "measure": "IC50", "value": "<50 µM"}
{"SMILES": "COc1ccc(CNC(=O)c2nc3ccccc3c(=O)n2O)cc1", "agent": "Hepatitis C virus", "strain": "1b", "protein": "NS5B", "method": "fluorescence", "measure": "IC50", "value": "13.9 µM"}
{"SMILES": "COc1cc(/C=N/Nc2cc(C)nc3c(OC)cccc23)cc(OC)c1OC", "agent": "Hepatitis C virus", "protein": "Nonstructural protein 3 protease", "measure": "IC50", "value": "<100 µg/mL"}
{"SMILES": "O=C(N[C@@H](C(=O)O)C1CCCCC1)c1cnn2c(C3CCCCC3)c(-c3ccc(F)cc3)cnc12", "agent": "Hepatitis C virus", "protein": "RNA-dependent RNA polymerase", "measure": "IC50", "value": "1–10 µM"}
{"SMILES": "O=C(NCCn1cncn1)Nc1cscc1-c1nc(C(=O)O)c(O)c(=O)[nH]1", "agent": "Hepatitis C virus", "protein": "HCV polymerase", "measure": "IC50", "value": "<25 µM"}
{"SMILES": "N#Cc1c(C2CCCCC2)nc(SCc2cccc([N+](=O)[O-])c2)[nH]c1=O", "agent": "Hepatitis C virus", "protein": "NS3/NS4A helicase", "measure": "IC50", "value": "<15 µM"}
{"SMILES": "CCC[C@H](NC(=O)[C@@H]1CCCN1C(=O)[C@@H](NC(=O)[C@@H](NC(=O)[C@H](CC(=O)O)NC(=O)[C@H](CC(=O)O)NC(C)=O)[C@@H](C)CC)C(C)C)C(=O)O", "agent": "Hepatitis C virus", "protein": "NS3 serine protease", "measure": "Ki", "value": "150 µM"}
{"SMILES": "O=C(NCc1ccccc1Cl)c1nc2ccccc2c(=O)n1O", "agent": "Hepatitis C virus", "strain": "1b", "protein": "NS5B", "method": "fluorescence", "measure": "IC50", "value": "32.8 µM"}
{"SMILES": "N#Cc1c(-c2ccc(Cl)cc2)nc(SCCCc2ccccc2)[nH]c1=O", "agent": "Hepatitis C virus", "protein": "NS3/NS4A helicase", "measure": "IC50", "value": "<15 µM"}
{"SMILES": "NC(C(=O)Nc1ccsc1-c1nc(C(=O)O)c(O)c(=O)[nH]1)(c1ccccc1)c1ccccc1", "agent": "Hepatitis C virus", "protein": "HCV polymerase", "measure": "IC50", "value": "<25 µM"}
{"SMILES": "N#Cc1c(C2CCCCC2)nc(Sc2cc(C(F)(F)F)ccc2[N+](=O)[O-])[nH]c1=O", "agent": "Hepatitis C virus", "protein": "NS3/NS4A helicase", "measure": "IC50", "value": "<15 µM"}
{"SMILES": "N#Cc1ccccc1-c1nc2cc(C(=O)N[C@H](C(=O)O)c3c[nH]c4ccc(O)cc34)ccc2n1C1CCCCC1", "agent": "Hepatitis C virus", "protein": "NS5B polymerase", "measure": "IC50", "value": "1–5 µM"}
{"SMILES": "CC(C)C[C@@]1(C(=O)O)C[C@@H](c2ncno2)[C@H](c2ccccn2)N1C(=O)c1ccc(C(C)(C)C)cc1", "agent": "Hepatitis C virus", "protein": "RNA-dependent RNA polymerase", "measure": "IC50", "value": "<50 µM"}
{"SMILES": "O=C(NCc1ccc(F)cc1)c1nc2ccccc2c(=O)n1O", "agent": "Hepatitis C virus", "strain": "1b", "protein": "NS5B", "method": "fluorescence", "measure": "IC50", "value": ">50 µM"}
{"SMILES": "CC(C)C[C@@]1(C(=O)O)C[C@H](c2ncon2)[C@H](c2nccs2)N1C(=O)c1ccc(C(C)(C)C)cc1", "agent": "Hepatitis C virus", "protein": "RNA-dependent RNA polymerase", "measure": "IC50", "value": "<50 µM"}
{"SMILES": "Nc1nc(=O)c2ncn(COCCO)c2c(=O)[nH]1", "agent": "Hepatitis C virus", "protein": "Nonstructural protein 3 NTPase/helicase", "method": "helicase activity", "measure": "IC50", "value": ">500 µM"}
{"SMILES": "N#Cc1c(-c2ccc(Cl)cc2)nc(CCc2ccccc2)[nH]c1=O", "agent": "Hepatitis C virus", "protein": "NS3/NS4A helicase", "measure": "IC50", "value": ">40 µM"}
{"SMILES": "C=C1[C@H](COP(=O)(O)OP(=O)(O)OP(=O)(O)O)[C@@H](O)C[C@@H]1n1cnc2c(=O)[nH]c(N)nc21", "agent": "Hepatitis B virus", "strain": "WILD TYPE", "protein": "DNA polymerase", "measure": "IC50", "value": "0.00043 µM"}
{"SMILES": "Nc1ccc(CNC(=O)c2nc3ccccc3c(=O)n2O)cc1", "agent": "Hepatitis C virus", "strain": "1b", "protein": "NS5B", "method": "fluorescence", "measure": "IC50", "value": "29.9 µM"}

The first 2 rows once more:

SMILES,agent,strain,protein,method,measure,value
NC(N)=NCc1ccc(Oc2ccccc2)cc1,Hepatitis C virus,-,miRNA-122,substrate cleavage,IC50,>1000 µM
N#Cc1c(C2CCCCC2)nc(SCC(=O)OCc2ccccc2)[nH]c1=O,Hepatitis C virus,-,NS3/NS4A helicase,-,IC50,15–40 µM